Pooled drug test results. Numbers come from NIAID ChemDB, via PubChem.

Shared fields: enzyme or target tests; species: HIV; target: Reverse transcriptase; endpoint: fold resistance

Rows are shuffled and stem from different studies. Blank or dashed fields: not listed here. Fold resistance has wild type as its base.

structure	read by	changes	strain	value
CCc1c([Se]c2ccccc2)n(COCc2ccccc2)c(=O)[nH]c1=O	RT activity	RT-V90A		1
Nc1ncnc2c1ncn2[C@H]1CC[C@@H](COP(=O)(O)OP(=O)(O)OP(=O)(O)O)O1		RT-K65R		4.82
CC(C)=CCN1Cc2cccc3[nH]c(=S)n(c23)C[C@@H]1C		RT-E138K(P66 ONLY)		0.8
Cc1c(Sc2ccccc2)n(COCCO)c(=O)[nH]c1=O		RT-K103N Y181I		>10
Cc1c(C(C)c2c(F)cccc2F)nc(NC2CCCC2)[nH]c1=O	nucleotide incorporation / radiometric	V179D		10
CC(C)Nc1cccnc1N1CCN(C(=O)c2cc3ccccc3[nH]2)CC1	nucleotide incorporation	RT-Y181C		38.1
Cc1cc(C)cc(Sc2c(C(C)C)c(=O)[nH]c(=S)n2COCCO)c1	nucleotide incorporation	RT-E138K		1.8
CCc1c([Se]c2ccccn2)n(COCc2ccccc2)c(=O)[nH]c1=O	RT activity	RT-V90A		1
Cc1cn([C@@H]2O[C@H](CO[Si](C)(C)C(C)(C)C)C3(OS(=O)(=O)C=C3N)[C@H]2O[Si](C)(C)C(C)(C)C)c(=O)n(C)c1=O	nucleotide incorporation	RT-E138K		>150
CCOc1ccccc1N1CCN(C(=O)c2cc3ccccc3[nH]2)CC1		RT-Y181C P236L		6.1
CC(=O)c1ccc(C)cc1NC(C(N)=O)c1c(Cl)cccc1Cl	RT activity	RT-V106A P225H		16
CC[C@]1(c2ccccc2)Oc2cccnc2-n2cccc2C1=O	nucleotide incorporation / radiometric	RT-M41L K103N T215Y	MDR	88
Cc1cn([C@@H]2O[C@H](CO[Si](C)(C)C(C)(C)C)[C@@]3(OS(=O)(=O)C=C3N)[C@H]2O[Si](C)(C)C(C)(C)C)c(=O)[nH]c1=O	nucleotide incorporation / radiometric	RT-N137S		0.63
Nc1nc2c(ncn2[C@H]2CC[C@@H](COP(=O)(O)OP(=O)(O)OP(=O)(O)O)O2)c(=O)[nH]1		RT-E138K(P51 ONLY)		0.2
CC[C@H]1C(=O)Nc2ccc(F)cc2N1C(=O)OC(C)C	nucleotide incorporation / radiometric	RT-N137Y		0.73
CCOc1ccccc1N1CCN(C(=O)c2cc3cc4c(cc3[nH]2)OCO4)CC1		RT-Y181C P236L		8.93
COc1ccc2c(c1)N(C(=O)OC(C)C)[C@@H](CSC)C(=S)N2	RT activity	RT-D67N K70R T215F K219Q		1
Cc1cn([C@H]2C=C[C@@H](COP(=O)(O)OP(=O)(O)OP(=O)(O)O)O2)c(=O)[nH]c1=O	nucleotide incorporation / radiometric	RT-N137T		8.95
Cc1cn([C@@H]2O[C@H](CO[Si](C)(C)C(C)(C)C)C3(OS(=O)(=O)C=C3N)[C@H]2O[Si](C)(C)C(C)(C)C)c(=O)n(C)c1=O	RT activity	RT-V106A P225H		>167
Nc1ccn([C@H]2CC[C@@H](COP(=O)(O)OP(=O)(O)OP(=O)(O)O)O2)c(=O)n1		RT-K65R S68G		2.25
C[C@H](Cn1cnc2c(N)ncnc21)OCP(=O)(O)OP(=O)(O)OP(=O)(O)O		RT-K65R		4

2 of the rows above, restated:

structure	read by	changes	strain	value
CC(=O)c1ccc(C)cc1NC(C(N)=O)c1c(Cl)cccc1Cl	RT activity	RT-V106A P225H		16
CC(C)Nc1cccnc1N1CCN(C(=O)c2cc3ccccc3[nH]2)CC1	nucleotide incorporation	RT-Y181C		38.1